Experimental data from patent publication US9493769B2 (priority 2004, dated 2016).

Target: P#10 protease (viral protease in its precursor context amplified from patient P#10) (Human immunodeficiency virus type 1, UniProt P12497, cells depend on it, form not given)
Experiment: Yeast-based resistance test in liquid media, short HIV-1 protease precursor from patient P#10 expressed in BY4741 yeast
Assay type: cell-based
Settings: BY4741 yeast transformants, living cells read at 600 nm, GraphPad Prism fit

Cc1cccc(C)c1OCC(=O)N[C@@H](Cc1ccccc1)[C@@H](O)C[C@H](Cc1ccccc1)NC(=O)[C@H](C(C)C)N1CCCNC1=O [Lopinavir, lopinavir]
IC50: > 100 mM
